Experimental data: PubChem BioAssay AID624099 (ICCB-Longwood, 2012)
Screen: 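Knock-downs relieving repression by E2 of an HPV18 LCR luciferase reporter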 (primary screen). Cells: human C33A cervical carcinoma cells (HPV-negative) stably expressing BPV1 E2 and an HPV18 LCR luciferase reporter. Reagent: siRNA pool against human genes, 40 nM. Time to read-out: 72 h. Measured: 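Per-well luciferase luminescence, z-scored on each plate against the plate mean and SD with control wells left out, then averaged across three replicate plates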. Reading the numbers: mean z-score and z-score: higher = stronger reporter signal, weaker E2 silencing. Call rule: 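Mean z ≥ 2 together with z ≥ 2 in two or more of the three replicates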.
The whole screen tested about 21,000 reagents; this is a part drawn at random. 497 of all reagents (2.4%) were called active. 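Higher z means weaker E2 silencing; only reporter increases were scored, and knock-downs that hurt cell survival may mask genuine repressor factors.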 Reagents against one gene are numbered here. No sequences are given here.

gene	reagent no.	mean z-score	z-score, replicate A	z-score, replicate B	z-score, replicate C	call
ARL13A	1	0.84	0.66	0.95	0.91	inactive
LOC390625 (retired record)	1	-0.75	-0.51	-1.26	-0.49	inactive
CLK4	1	-0.67	-0.4	-1	-0.6	inactive
FIRRM	1	-0.99	-1.1	-1.21	-0.67	inactive
MAP7D3	1	1.22	1.91	0.96	0.78	inactive
DNAL1	1	0.75	0.82	0.68	0.74	inactive
FRMD4B	1	-1.14	-1.08	-1.38	-0.95	inactive
MTO1	1	-0.57	-0.61	-0.53	-0.57	inactive
DNAI4	1	-1.34	-1.42	-1.3	-1.3	inactive
TEDAR	1	0.02	0.03	0.06	-0.02	inactive
ZNF24	1	-0.78	-0.15	-1.07	-1.13	inactive
GSX2	1	0.47	0.49	1.02	-0.09	inactive
GSG1	1	0.82	0.6	0.82	1.04	inactive
GPR68	1	0.47	0.32	0.68	0.4	inactive
CBX8	1	0.18	0.29		0.07	inactive
GNL3	1	0.19	0.14	0.27	0.16	inactive
FSD1	1	0.22	0.04	0.48	0.14	inactive
VTI1B	1	1.23	1.31	1.26	1.12	inactive
FYRD1	1	0.07	-0.23	0.14	0.29	inactive
SAMSN1	1	-0.79	-0.84	-0.63	-0.9	inactive
SAMSN1	2	0.53	0.21	0.49	0.88	inactive
SIRT1	1	1.12	1.08	1.12	1.16	inactive
OR8I2	1	-0.22	0.3	-0.42	-0.55	inactive
WDR25	1	-0.69	-0.43	-0.93	-0.72	inactive
SLC10A5	1	-0.34	-0.05	-0.42	-0.54	inactive
THAP5P1	1	-0.43	-0.6	-0.04	-0.65	inactive
SLC46A1	1	1.78	1.74	1.71	1.87	inactive
OCIAD1	1	1.09	1.17	1.06	1.03	inactive
LOC389950 (retired record)	1	-0.7	-0.37	-0.78	-0.96	inactive
LYPD1	1	-0.87	-0.95	-0.77	-0.89	inactive
NBPF15	1	-0.03	-0.18	0.1	-0.01	inactive
IL9R	1	-0.77	-0.78	-0.85	-0.69	inactive
DENND6A	1	0.24	0.22	0.28	0.21	inactive

Part of the list above, reformatted:
ZNF24
- mean z-score: -0.78
- z-score, replicate A: -0.15
- z-score, replicate B: -1.07
- z-score, replicate C: -1.13
- call: inactive

GSX2
- mean z-score: 0.47
- z-score, replicate A: 0.49
- z-score, replicate B: 1.02
- z-score, replicate C: -0.09
- call: inactive

GSG1
- mean z-score: 0.82
- z-score, replicate A: 0.6
- z-score, replicate B: 0.82
- z-score, replicate C: 1.04
- call: inactive

GPR68
- mean z-score: 0.47
- z-score, replicate A: 0.32
- z-score, replicate B: 0.68
- z-score, replicate C: 0.4
- call: inactive

CBX8
- mean z-score: 0.18
- z-score, replicate A: 0.29
- z-score, replicate C: 0.07
- call: inactive

GNL3
- mean z-score: 0.19
- z-score, replicate A: 0.14
- z-score, replicate B: 0.27
- z-score, replicate C: 0.16
- call: inactive

FSD1
- mean z-score: 0.22
- z-score, replicate A: 0.04
- z-score, replicate B: 0.48
- z-score, replicate C: 0.14
- call: inactive

VTI1B
- mean z-score: 1.23
- z-score, replicate A: 1.31
- z-score, replicate B: 1.26
- z-score, replicate C: 1.12
- call: inactive

FYRD1
- mean z-score: 0.07
- z-score, replicate A: -0.23
- z-score, replicate B: 0.14
- z-score, replicate C: 0.29
- call: inactive

Further reagents:
gene	reagent no.	mean z-score	z-score, replicate A	z-score, replicate B	z-score, replicate C	call
TMIGD1	1	-1.44	-1.46	-1.47	-1.39	inactive
bA395L14.13 (retired record)	1	-0.01	-0.67	0.42	0.24	inactive
TTC1	1	-0.42	-0.42	-0.34	-0.5	inactive
LOC105378085	1	-0.48	-0.54	-0.39	-0.5	inactive
PAQR9	1	-3.1	-3.13	-3.65	-2.52	inactive
MID1	1	0.66	0.66	0.41	0.93	inactive
ERVW-1	1	-0.34	-0.4	-0.42	-0.19	inactive
IGSF10	1	0.23	0.36	0.01	0.34	inactive
LOC401180 (retired record)	1	-0.38	-0.21	-0.53	-0.41	inactive
SYK	1	-0.05	-0.18	0.17	-0.14	inactive
KIR3DL1	1	0.3	0.25	0.01	0.64	inactive
PRR3	1	-0.08	-0.35	0.05	0.07	inactive
NFYC	1	-0.54	-0.42	-0.7	-0.51	inactive
KRT38	1	-1.34	-1.41	-1.31	-1.3	inactive
FAM135B	1	0.6	0.21	0.96	0.64	inactive
AKT1S1	1	-0.36	-0.6	-0.39	-0.1	inactive
ZMYND8	1	1.52	1.73	1.46	1.36	inactive
LINC01498	1	0.09	0.02	0.09	0.17	inactive
ITK	1	2.06	2.39	1.91	1.89	inactive
CPAMD8	1	1.45	2.21	1.26	0.87	inactive
VWA1	1	0.21	0.24	0.18	0.22	inactive
LOC401121 (retired record)	1	0.65	0.91	0.65	0.4	inactive
MAMSTR	1	0.64	0.94	0.75	0.24	inactive
NTF4	1	-0.62	-0.44	-0.66	-0.76	inactive
